Among the data in patent US20020102533A1 (priority 2000, published 2002) are step yield values, retold here.

A short description of this series: general procedure: Fmoc solid-phase peptide synthesis; Wang resin. The conditions noted are these: TFA.

With “Boc-Asp(OBu)-Glu(OBu)-Val-Val-Pro—NH—CH(Allyl)CH(OH)CF2CF3”, under “coupling step”, the step yield was found to be 41.9%.
With “Boc-Asp(Obu-)Glu(OBu)-Val-Val-Pro-AlgCF2CF3”, the step yield (late stage modification step) is 66.6%.
